Anti-infective test results gathered from many reports (values: NIAID ChemDB through PubChem).

All rows: tests on isolated targets; agent: HIV; target: Reverse transcriptase

Neighbouring rows are from separate reports. ICn is the concentration giving n% inhibition. Two numbers with a dash give a range or band. Blank or dashed fields: not listed here.

compound,read-out,changes,method,value
Nc1nc2c(ncn2[C@H]2CC[C@@H](COP(=O)(O)OP(=O)(O)OP(=O)(O)O)O2)c(=O)[nH]1,Ki,RT-L74V,-,0.12 µM
CCN1c2ncc(CSc3ccccc3)cc2C(=O)Nc2c(C)cc(Cl)nc21,IC50,K103N,RT activity,0.224 µM
Cc1cn([C@@]23CC2[C@H](COP(=O)(O)OP(=O)(O)OP(=O)(O)O)[C@@H](N=[N+]=[N-])C3)c(=O)[nH]c1=O,IC50,-,-,>1 µM
CC(C)OC(=O)c1cc(NC(=S)OC(C)C)ccc1Cl,IC50,L100I,radiometric,27.4 µM
Nc1ccn([C@@H]2CC[C@H](COP(=O)(O)OP(=O)(O)OP(=O)(O)O)O2)c(=O)n1,Ki,RT-Y188L,nucleotide incorporation / radiometric,14 µM
CCN1c2ncc(CSc3cccc(OC)c3)cc2C(=O)Nc2c(C)cc(Cl)nc21,IC50,K103N,RT activity,0.428 µM
CC(C)=CCN1Cc2cccc3[nH]c(=S)n(c23)C[C@@H]1C,IC50,RT-Y271S,nucleotide incorporation,>46 µM
COc1ccc2nc3cc(Cl)ccc3c(NCCCN(C)CCCN)c2c1,IC50,-,nucleotide incorporation / radiometric,6.8 µg/mL
CCc1c(Cc2ccccc2)nc(SCC(=O)c2cccs2)[nH]c1=O,IC50,-,ELISA,17.8 µM
COc1ccc2nc3cc(Cl)ccc3c(NCCCCCN)c2c1,IC50,-,nucleotide incorporation / radiometric,13 µg/mL
Nc1ccn([C@H]2CC[C@@H](COP(=O)(O)OP(=O)(O)OP(=O)(O)OP(=O)(O)OC[C@@H]3CC[C@H](n4ccc(N)nc4=O)O3)O2)c(=O)n1,IC50,RT-M41L T215Y,nucleotide incorporation / radiometric,1.1 µM
CC(C)c1c(Cc2ccccc2)nc(SCC(=O)c2ccccc2)[nH]c1=O,IC50,-,ELISA,0.66 µM
S=C(Cc1ccccn1)NCCc1ccccc1,IC50,L100I,radiometric,>100 µM
CCN1c2nc(Cl)ccc2NC(=O)c2cc(CSc3ccccc3)cnc21,IC50,K103N,RT activity,6.23 µM
COc1ccc2nc3cc(Cl)ccc3c(NCCNCCNCCN)c2c1,IC50,-,nucleotide incorporation / radiometric,11 µg/mL
Nc1nc2c(ncn2[C@H]2CO[C@@H](COP(=O)(O)OP(=O)(O)OP(=O)(O)O)O2)c(=O)[nH]1,Ki,RT-K65R K103N Q151M,radiometric,0.221 µM
CC(C)=CCOc1cc(NC(=S)c2ccoc2C)ccc1Cl,IC50,-,-,5.2 µM
Cc1cn([C@H]2CC[C@@H](COP(=O)(O)OP(=O)(O)OP(=O)(O)O)O2)c(=O)[nH]c1=O,Ki,RT-L74V,-,0.085 µM
S=C(CCCc1ccccc1)Nc1ccc(Cl)cn1,IC50,K103N,radiometric,>100 µM
CC(C)=CCN1Cc2cccc3[nH]c(=S)n(c23)C[C@@H]1C,Ki,-,nucleotide incorporation,0.41 µM
O=C(/C=C/C1=CC2C=Cc3cc(O)c(O)cc3OC2C(O)=C1)OC(Cc1ccc(O)c(O)c1)C(=O)O,IC50,-,-,67.1–193 µg/mL
C=C(C)OC(=O)N1c2cc(Cl)ccc2NC(=S)C1(C)C,IC50,RT-Y181C,radiometric,7.1 µM
CCC(c1nc(N(C)C)[nH]c(=O)c1C)c1c(F)cccc1F,Ki,K103N,nucleotide incorporation,>20 µM
CC(C)=CCOc1cc(NC(=S)c2ccsc2C)ccc1Cl,IC50,-,-,0.2 µM
CCc1c(Cc2ccccc2)nc(SCC(=O)c2ccc(OC)cc2)[nH]c1=O,IC50,-,ELISA,1.06 µM
Nc1ncnc2c1ccn2[C@H]1C[C@H](F)[C@@H](COP(=O)(O)OP(=O)(O)OP(=O)(O)O)O1,IC50,RT-M41L T215Y,nucleotide incorporation / radiometric,0.22 µM
CCc1c(Cc2cccc3ccccc23)nc(Sc2cccs2)[nH]c1=O,IC50,-,ELISA,548 µM
Cc1ccnc2c1NC(=O)c1cc(N)cnc1N2C1CC1,IC50,K103N,RT activity,97 µM
COc1ccc2nc3cc(Cl)ccc3c(NCCN)c2c1,IC50,-,nucleotide incorporation / radiometric,12.5 µg/mL
CC(C)c1c(Cc2ccccc2)nc(SCC(=O)c2cccs2)[nH]c1=O,IC50,-,ELISA,37.8 µM
CN(C)CCCN=C(N)c1ccc(C(N)=NCCCN(C)C)cc1,Ki,-,nucleotide incorporation / radiometric,7.4 µM
Cc1cc(Cc2ccc(Cl)c(Oc3cc(F)cc(C#N)c3)c2F)n[nH]c1=O,IC50,G190A,-,0.001 µM
Nc1nc2c(ncn2[C@H]2CC[C@@H](COP(=O)(O)OP(=O)(O)NP(=O)(O)OP(=O)(O)OC[C@H]3O[C@@H](n4cnc5c(N)ncnc54)[C@H](O)[C@@H]3O)O2)c(=O)[nH]1,IC50,RT-D67N K70R T215Y K219Q,nucleotide incorporation / radiometric,28 µM
CCN1c2nc(Cl)ccc2NC(=O)c2cc(CSc3cccc(F)c3)cnc21,IC50,K103N,RT activity,13.9 µM
CCN(CC)CCCC(C)Nc1c2ccc(Cl)cc2nc2ccc(OC)cc12,IC50,-,nucleotide incorporation / radiometric,38 µg/mL
Nc1ncnc2c1ncn2[C@H]1CC[C@@H](COP(=O)(O)OP(=O)(O)OP(=O)(O)O)O1,IC50,-,radiometric,0.05 µM
COc1ccc2nc3cc(Cl)ccc3c(NCCCN)c2c1,IC50,-,nucleotide incorporation / radiometric,18 µg/mL
CCCCCCCCCCCCCCCCCC(=O)NCCN(CC(=O)O)C(=O)Cn1cc(C)c(=O)[nH]c1=O,IC50,-,-,65 µM
Nc1nc2c(ncn2[C@H]2CC[C@@H](COP(=O)(O)OP(=O)(O)OP(=O)(O)O)O2)c(=O)[nH]1,IC50,RT-F77L Q151M,nucleotide incorporation / radiometric,0.045 µM
Nc1ccn([C@H]2CC[C@@H](COP(=O)(O)OP(=O)(O)OP(=O)(O)O)O2)c(=O)n1,IC50,RT-D67N K70R T215Y K219Q,nucleotide incorporation / radiometric,0.1 µM
Cc1cc(Cc2ccc(Cl)c(Oc3cc(Cl)cc(C#N)c3)c2F)n[nH]c1=O,IC50,-,nucleotide incorporation,0.001 µM

Again, the opening 4 rows:

compound,read-out,changes,method,value
Nc1nc2c(ncn2[C@H]2CC[C@@H](COP(=O)(O)OP(=O)(O)OP(=O)(O)O)O2)c(=O)[nH]1,Ki,RT-L74V,-,0.12 µM
CCN1c2ncc(CSc3ccccc3)cc2C(=O)Nc2c(C)cc(Cl)nc21,IC50,K103N,RT activity,0.224 µM
Cc1cn([C@@]23CC2[C@H](COP(=O)(O)OP(=O)(O)OP(=O)(O)O)[C@@H](N=[N+]=[N-])C3)c(=O)[nH]c1=O,IC50,-,-,>1 µM
CC(C)OC(=O)c1cc(NC(=S)OC(C)C)ccc1Cl,IC50,L100I,radiometric,27.4 µM